This note sets out measurements from patent US20070060591A1, “Chemokine receptor binding heterocyclic compounds” (priority 1999, published 2007).

The series has as its system HIV-1 (HTLV-IIIB). The format is cell-based. Conditions: HIV-1 (IIIB); MT-4 cells. Here is the method: The compounds of the invention were tested in a screen by the MTT method (J. Virol. Methods […] (1988)). MT-4 cells (2.5×10^4/well) were challenged with HIV-1 (HTLV-IIIB) or HIV-2 (LAV-2 ROD) at a concentration of 100 CCID50 and incubated in the presence of various concentrations of the test compounds, which were added immediately after challenge with the virus. After 5 days culture at 37° C. in a CO2 incubator, the number of viable cells was assessed by the MTT (tetrazolium) method. […] The potential therapeutic usefulness was assessed by calculating a Selectivity Index (SI) corresponding to the ratio of CC50 to EC50.
Take `Nc1ccc(CNCc2ccc(CN3CCCNCCNCCCNCC3)cc2)cc1` [AMD3544, N-[1,4,8,11-Tetraazacyclotetradecanyl-1,4-Ihenylenebis(methylene)]-4-amino-benzylamine]: the “SI HIV-1 (Selectivity Index, ratio of CC50 to EC50)” value turned out to be 317.
Take `c1ccc(CNCc2ccc(CN3CCCNCCNCCCNCC3)cc2)cc1` [AMD3529, N-[1,4,8,11-Tetraazacyclotetradecanyl-1,4-phenylenebis(methylene)]-benzylamine]: the “SI HIV-1 (Selectivity Index, ratio of CC50 to EC50)” value came to 325.
With `c1ccc(CCNCc2ccc(CN3CCCNCCNCCCNCC3)cc2)nc1` [AMD3497, N-[1,4,8,11-Tetraazacyclotetradecanyl-1,4-phenylenebis(methylene)]-2-(amino-ethyl)pyridine], the “SI HIV-1 (Selectivity Index, ratio of CC50 to EC50)” value turned out to be 138.
Consider `Cc1cnc(CNCc2ccc(CN3CCCNCCNCCCNCC3)cc2)cn1` [AMD3498, N-[1,4,8,11-Tetraazacyclotetradecanyl-1,4-phenylenebis(methylene)]-(2-amino-methyl-5-methyl)pyrazine], for which the “SI HIV-1 (Selectivity Index, ratio of CC50 to EC50)” value is 1.2 × 10^3.
With `c1csc(CNCc2ccc(CN3CCCNCCNCCCNCC3)cc2)c1` [AMD3516, N-[1,4,8,11-Tetraazacyclotetradecanyl-1,4-phenylenebis(methylene)]-2-(amino-methyl)thiophene] the figure was 225; with `Nc1ccccc1CNCc1ccc(CN2CCCNCCNCCCNCC2)cc1` [AMD3517, N-[1,4,8,11-Tetraazacyclotetradecanyl-1,4-phenylenebis(methylene)]-2-amino-benzylamine], 191; with `c1nc(CCNCc2ccc(CN3CCCNCCNCCCNCC3)cc2)c[nH]1` [AMD3543, N-[1,4,8,11-Tetraazacyclotetradecanyl-1,4-phenylenebis(methylene)]-4-(amino-ethyl)imidazole], 1 × 10^3.
As to `SCCNCc1ccc(CN2CCCNCCNCCCNCC2)cc1` [AMD3530, N-[1,4,8,11-Tetraazacyclotetradecanyl-1,4-phenylenebis(methylene)]-2-(amino-ethyl)mercaptan], the “SI HIV-1 (Selectivity Index, ratio of CC50 to EC50)” value was determined as 350.
As to `CN(Cc1ccc(CN2CCCNCCNCCCNCC2)cc1)Cc1ccccn1` [AMD3538, N-[1,4,8,11-Tetraazacyclotetradecanyl-1,4-phenylenebis(methylene)]-N-methyl-2-(aminomethyl)pyridine], the “SI HIV-1 (Selectivity Index, ratio of CC50 to EC50)” value was 2.0 × 10^3.
Consider `c1cc(CNCc2ccc(CN3CCCNCCNCCCNCC3)cc2)ccn1` [AMD3500], for which the “SI HIV-1 (Selectivity Index, ratio of CC50 to EC50)” value is 417.
